The values that follow come from publication PMC10575921 (2023).

The test system of data set [1] is bone marrow of Sprague Dawley (SD) rats. The note with it: male, rat.
Data set [2] has as its system human primary hepatocytes. The note with it: primary hepatocyte cytotoxicity; 0.206 μM.

Values joined by “and” are separate entries in the source; they are usually repeats but may differ in a detail not shown here. Equal values may be shown once.

With `CC(C)(C)[C@H](NC(=O)C(F)(F)F)C(=O)N1CC2(C[C@H]1C(=O)N[C@H](C#N)C[C@@H]1CCNC1=O)SCCS2` [compound 9, simnotrelvir], the “in vivo micronucleus test result” value in data set [1] is recorded as “negative”.

As for `CC/C(=C(\c1ccccc1)c1ccc(OCCN(C)C)cc1)c1ccccc1` [Tamoxifen], the “% of vehicle control” value in data set [2] is 100.25% and 99.17%.
